Data as given in PubChem BioAssay AID624099 (ICCB-Longwood, 2012).

Assay: 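Knock-downs relieving repression by E2 of an HPV18 LCR luciferase reporter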 (primary screen)
Cell system: human C33A cervical carcinoma cells (HPV-negative) stably expressing BPV1 E2 and an HPV18 LCR luciferase reporter
Reagent: siRNA pool against human genes, 40 nM
Time to read-out: 72 h
Read-out: 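Per-well luciferase luminescence, z-scored on each plate against the plate mean and SD with control wells left out, then averaged across three replicate plates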
Scale: mean z-score and z-score: higher = stronger reporter signal, weaker E2 silencing
Call rule: 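Hit if mean z-score reaches 2 and two or more of three replicate z-scores also reach 2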
Here is a random part of about 21,000 reagents tested. 497 of them (2.4%) count as active. 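Higher z means weaker E2 silencing; only reporter increases were scored, and knock-downs that hurt cell survival may mask genuine repressor factors.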 Reagents against one gene are numbered here.

| gene symbol | reagent | mean z-score | z-score, replicate A | z-score, replicate B | z-score, replicate C | Outcome |
| --- | --- | --- | --- | --- | --- | --- |
| SNX3 (sorting nexin 3) | 1 | -0.03 | -0.05 | 0.04 | -0.09 | inactive |
| RAB6A (RAB6A, member RAS oncogene family) | 1 | -1.02 | -1.14 | -1.07 | -0.85 | inactive |
| RASSF7 (Ras association domain family member 7) | 1 | -0.03 | -0.11 | 0.3 | -0.26 | inactive |
| PARD6G (par-6 family cell polarity regulator gamma) | 1 | 0.83 | 0.79 | 0.68 | 1.02 | inactive |
| TLE5 (TLE family member 5, transcriptional modulator) | 1 | -0.46 | -0.65 | -0.46 | -0.26 | inactive |
| LOC202775 (retired record) | 1 | -0.84 | -1.02 | -0.81 | -0.69 | inactive |
| BCL7C (BAF chromatin remodeling complex subunit BCL7C) | 1 | -0.53 | -0.64 | -0.48 | -0.47 | inactive |
| EIF3J (eukaryotic translation initiation factor 3 subunit J) | 1 | -0.22 | -0.29 | -0.14 | -0.22 | inactive |
| TTK (TTK protein kinase) | 1 | 0.05 | -0.03 | 0.16 | 0.03 | inactive |
| KLRB1 (killer cell lectin like receptor B1) | 1 | -1.09 | -1.37 | -1.05 | -0.85 | inactive |
| DNPH1 (2'-deoxynucleoside 5'-phosphate N-hydrolase 1) | 1 | -0.98 | -0.84 | -1.12 | -0.97 | inactive |
| ICA1 (islet cell autoantigen 1) | 1 | -0.38 | -0.27 | -0.53 | -0.32 | inactive |
| CFLAR (CASP8 and FADD like apoptosis regulator) | 1 | -1.45 | -1.45 | -1.44 | -1.46 | inactive |
| MCM9 | 1 | -0.12 | -0.16 | 0.32 | -0.52 | inactive |
| NT5DC3 (5'-nucleotidase domain containing 3) | 1 | 0.72 | 1.05 | 0.26 | 0.85 | inactive |
| TMCO2 (transmembrane and coiled-coil domains 2) | 1 | -1.82 | -1.65 | -1.97 | -1.83 | inactive |
| UPK3A (uroplakin 3A) | 1 | -0.02 | -0.05 | 0.01 | -0.01 | inactive |
| CCL4L1 (C-C motif chemokine ligand 4 like 1) | 1 | -0.95 | -1.27 | -0.69 | -0.88 | inactive |
| WFDC10A (WAP four-disulfide core domain 10A) | 1 | -0.25 | -0.41 | -0.53 | 0.19 | inactive |
| MBL2 (mannose binding lectin 2) | 1 | 0.3 | 0.41 | 0.59 | -0.09 | inactive |
| VN1R37P (vomeronasal 1 receptor 37 pseudogene) | 1 | -0.04 | -0.34 | 0.21 | 0.02 | inactive |
| MMP24 (matrix metallopeptidase 24) | 1 | 0 | 0.17 | -0.01 | -0.16 | inactive |
| SEMG2 (semenogelin 2) | 1 | 0.52 | 0.4 | 0.64 | 0.52 | inactive |
| AMER3 (APC membrane recruitment protein 3) | 1 | -0.11 | 0 | -0.17 | -0.16 | inactive |
| LOC388305 (retired record) | 1 | 0.09 | -0.14 | 0.15 | 0.26 | inactive |
| RNF41 (ring finger protein 41) | 1 | -0.45 | -0.3 | -0.6 | -0.44 | inactive |
| SLK (STE20 like kinase) | 1 | -0.52 | -0.42 | -0.66 | -0.48 | inactive |
| LOC388952 (retired record) | 1 | 0.02 | -0.2 | 0.09 | 0.18 | inactive |
| EYA2 (EYA transcriptional coactivator and phosphatase 2) | 1 | 0.32 | 0.14 | 0.26 | 0.56 | inactive |
| MS4A5 (membrane spanning 4-domains A5) | 1 | -1.19 | -1.37 | -1.24 | -0.97 | inactive |
| WBP2NL (WBP2 N-terminal like) | 1 | 1.45 | 1.32 | 1.49 | 1.55 | inactive |

Copied from above for reference:
| gene symbol | reagent | mean z-score | z-score, replicate A | z-score, replicate B | z-score, replicate C | Outcome |
| --- | --- | --- | --- | --- | --- | --- |
| PARD6G (par-6 family cell polarity regulator gamma) | 1 | 0.83 | 0.79 | 0.68 | 1.02 | inactive |
| TLE5 (TLE family member 5, transcriptional modulator) | 1 | -0.46 | -0.65 | -0.46 | -0.26 | inactive |
| LOC202775 (retired record) | 1 | -0.84 | -1.02 | -0.81 | -0.69 | inactive |
| BCL7C (BAF chromatin remodeling complex subunit BCL7C) | 1 | -0.53 | -0.64 | -0.48 | -0.47 | inactive |
| EIF3J (eukaryotic translation initiation factor 3 subunit J) | 1 | -0.22 | -0.29 | -0.14 | -0.22 | inactive |

More results:
| gene symbol | reagent | mean z-score | z-score, replicate A | z-score, replicate B | z-score, replicate C | Outcome |
| --- | --- | --- | --- | --- | --- | --- |
| ZNF418 (zinc finger protein 418) | 1 | 0.95 | -0.03 | 1.53 | 1.34 | inactive |
| ZSWIM5 (zinc finger SWIM-type containing 5) | 1 | -0.11 | 0.08 | 0.1 | -0.51 | inactive |
| TCF12-DT (TCF12 divergent transcript) | 1 | 1.89 | 1.67 | 1.6 | 2.39 | inactive |
| LY6G6F (lymphocyte antigen 6 family member G6F) | 1 | -0.07 | 0.18 | 0.12 | -0.51 | inactive |
| ZFP3 (ZFP3 zinc finger protein) | 1 | -0.46 | -0.87 | -0.16 | -0.36 | inactive |
| ANKRD44 (ankyrin repeat domain 44) | 1 | 0.08 | -0.22 | -0.36 | 0.82 | inactive |
| MSX2 (msh homeobox 2) | 1 | -0.14 | -0.38 | 0.07 | -0.12 | inactive |
| GNAI1 (G protein subunit alpha i1) | 1 | 1.95 | 1.9 | 2.14 | 1.8 | inactive |
| LINC00485 (long independently transcribed non-coding RNA 485) | 1 | 0.28 | 0.81 | 0 | 0.04 | inactive |
| ZNF579 (zinc finger protein 579) | 1 | 0.13 | 0.46 | 0.22 | -0.28 | inactive |
| VSIG10 (V-set and immunoglobulin domain containing 10) | 1 | -0.49 | -0.18 | -0.61 | -0.68 | inactive |
| RIPPLY2 (ripply transcriptional repressor 2) | 1 | 0.56 | 0.22 | 0.88 | 0.57 | inactive |
| HOXD8 (homeobox D8) | 1 | -0.38 | -0.23 | -0.54 | -0.36 | inactive |
| RNF10 (ring finger protein 10) | 1 | -0.3 | -0.41 | -0.29 | -0.2 | inactive |
| KCTD10 (potassium channel tetramerization domain containing 10) | 1 | 0.81 | 0.56 | 0.65 | 1.22 | inactive |
| CCN5 (cellular communication network factor 5) | 1 | 0.13 | -0.09 | 0.28 | 0.21 | inactive |
| PM20D1-AS1 (PM20D1 antisense RNA 1) | 1 | -0.2 | -0.48 | -0.33 | 0.21 | inactive |
| RTKN2 (rhotekin 2) | 1 | -0.11 | 0.28 | -0.31 | -0.31 | inactive |
| STARD4 (StAR related lipid transfer domain containing 4) | 1 | 0.26 | 0.21 | 0.33 | 0.24 | inactive |
| PCDHA4 (protocadherin alpha 4) | 1 | 0.79 | 0.48 | 0.77 | 1.12 | inactive |
| CYP2A13 (cytochrome P450 family 2 subfamily A member 13) | 1 | -0.59 | -0.27 | -0.63 | -0.87 | inactive |
| IDO1 (indoleamine 2,3-dioxygenase 1) | 1 | 0.38 | 0.48 | 0.22 | 0.45 | inactive |
| TCP1 (t-complex 1) | 1 | 1.23 | 1.54 | 1.14 | 1.02 | inactive |
| LINC00868 (long independently transcribed non-coding RNA 868) | 1 | 1.31 | 0.8 | 1.71 | 1.42 | inactive |
| KAT7 (lysine acetyltransferase 7) | 1 | 0.26 | 0.22 | 0.52 | 0.05 | inactive |
| LOC391035 (retired record) | 1 | -0.68 | -0.57 | -0.4 | -1.06 | inactive |
| ZNF415 (zinc finger protein 415) | 1 | -1.5 | -1.52 | -1.47 | -1.51 | inactive |
| CA12 (carbonic anhydrase 12) | 1 | 0.67 | 0.8 | 0.74 | 0.48 | inactive |
| MIATNB (MIAT neighbor) | 1 | -0.15 | -0.03 | -0.42 | -0.01 | inactive |
| CASP3 (caspase 3) | 1 | -0.7 | -0.76 | -1.06 | -0.28 | inactive |
| TOMM22P3 (TOMM22 pseudogene 3) | 1 | 0.29 | 0.2 | 0.17 | 0.49 | inactive |
| MIR1-1HG (MIR1-1 host gene) | 1 | -0.73 | -0.66 | -0.87 | -0.67 | inactive |
| LOC387631 (retired record) | 1 | 0.5 | 0.38 | 0.37 | 0.76 | inactive |
| MAP2 (microtubule associated protein 2) | 1 | 0.33 | 0.17 | 0.34 | 0.47 | inactive |
| VTI1A (vesicle transport through interaction with t-SNAREs 1A) | 1 | 0.83 | 0.15 | 0.82 | 1.52 | inactive |
| VTI1A (vesicle transport through interaction with t-SNAREs 1A) | 2 | 0.07 | -0.59 | 0.19 | 0.62 | inactive |
| HLA-DRB4 (major histocompatibility complex, class II, DR beta 4) | 1 | 0.75 | 0.52 | 0.9 | 0.84 | inactive |
| PLP1 (proteolipid protein 1) | 1 | -1.67 | -1.54 | -1.66 | -1.8 | inactive |
| DSC2 (desmocollin 2) | 1 | -1.27 | -1.03 | -1.12 | -1.66 | inactive |
| LOC202025 (retired record) | 1 | -1.42 | -1.49 | -1.6 | -1.18 | inactive |
| KANK1 (KN motif and ankyrin repeat domains 1) | 1 | -0.34 | -0.41 | -0.39 | -0.23 | inactive |
| MCM5 (minichromosome maintenance complex component 5) | 1 | 0.37 | 0.43 | 0.42 | 0.25 | inactive |
